Inhibition data for 60 molecules are collected here from PubChem BioAssay AID743093 (The Scripps Research Institute Molecular Screening Center, 2013).

Molecules are shown by their SMILES. Only a part is listed here, and it is no random draw. Active and inactive are the calls of the source.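 How the source made its calls: active means inhibition above the mean plus 3 SD of compounds within the control limits, set per campaign (cut at about 38% in these data); inactive means the rest.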

This assay can be described thus: reduced ATP in mature Plasmodium gametocytes – ATP luminescence, HTS, primary screen (AID 743093).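 Further: 0% = DMSO wells and 100% = medium only without gametocytes.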 The conditions noted are these: P. falciparum stage V gametocytes, 24 h, at 10.9 µM, hits give high values.
Regarding `O=[N+]([O-])c1cc([N+](=O)[O-])c(-n2nnc3ccccc32)c([N+](=O)[O-])c1`, the inhibition – broadly, the relative decrease from the control value, in per cent – is inactive: 9.64%.
The figure for `O=[N+]([O-])c1cc([N+](=O)[O-])c(-c2cnn(-c3ccccc3)c2)c([N+](=O)[O-])c1` is inactive: -18%; for `CCOC(=O)C(CC)C1=NC(C)(C)Cc2ccccc21.O=[N+]([O-])c1cc([N+](=O)[O-])c(O)c([N+](=O)[O-])c1` (stereo not given) it is inactive: 24.2%; for `CCCOc1ccc(NP(C)(=O)Oc2ccc(Cl)cc2)cc1` (stereo not given) it is inactive: -20.7%.
The value for `CN1CCCCC1COC(=O)C1(O)c2ccccc2CCc2ccccc21` (stereo not given) was inactive: -3.74%; that for `O=C(O)c1cccc(Nc2c([N+](=O)[O-])cc([N+](=O)[O-])cc2[N+](=O)[O-])c1` was inactive: 21.2%.
Consider `CCOC(=O)c1ccc(NP(C)(=O)Oc2cc(C)cc(C)c2)cc1` (stereo not given), for which the inhibition was inactive: 22%.
Take `Cc1cc(C)cc(OP(C)(=O)Nc2ccc(C)cc2C)c1` (stereo not given): the inhibition was inactive: -3.84%.
The figure for `COc1ccccc1OP(C)(=O)Nc1cccc(Br)c1` (stereo not given) is inactive: 2.35%; for `Cc1ccc(C)c(NP(C)(=O)Oc2ccccc2)c1` (stereo not given) it is inactive: 8.86%.
As for `CCN(CC)CCCOC(=O)C(O)(c1ccccc1)c1ccccc1`, the inhibition is inactive: 1.46%.
For the molecule `O=[N+]([O-])c1ccc2c(c1)C=Nc1ccccc1O2`, the inhibition is inactive: -12.2%.
As to `CC(C)(C)c1ccc(OP(C)(=O)Nc2ccc(SC(F)(F)F)cc2)cc1` (stereo not given), the inhibition was inactive: -4.25%.
On to `Cc1cccc(C)c1OP(C)(N)=O` (stereo not given), for which the inhibition is inactive: 13.8%.
The figure for `Cc1cc(C)cc(OP(C)(N)=O)c1` (stereo not given) is inactive: -10.7%.
`COc1ccccc1OP(C)(=O)Nc1cc(Cl)ccc1C` (stereo not given): the inhibition is inactive: -7.79%.
Consider `COc1ccc(OP(C)(=O)Nc2cccc(F)c2)cc1` (stereo not given), for which the inhibition was inactive: 23.3%.
Regarding `CCOC(=O)c1ccc(NP(C)(=O)Oc2ccccc2)cc1` (stereo not given), the inhibition is inactive: 7.69%.
As for `CP(=O)(Nc1ccccc1Br)Oc1ccccc1` (stereo not given), the inhibition is inactive: 14.7%.
With `COc1ccccc1OP(C)(=O)Nc1ccccc1` (stereo not given), the inhibition was inactive: -8.86%.
Take `CP(=S)(Nn1cnnc1)Oc1ccccc1` (stereo not given): the inhibition is inactive: -8.6%.
As to `CCc1ccc(OP(C)(=O)N2CCN(c3ccc([N+](=O)[O-])cc3)CC2)cc1` (stereo not given), the inhibition is inactive: -17.8%.
In the case of `CP(=O)(NC(=O)Nc1ccccc1)Oc1ccccc1` (stereo not given), the inhibition is inactive: 8.03%.
The value for `Cc1cc(C)cc(OP(C)(=O)Nc2ccc(SC(F)(F)F)cc2)c1` (stereo not given) was inactive: -11.8%.
With `CP(=O)(Nc1ccc(SC(F)(F)F)cc1)Oc1ccc(Cl)cc1` (stereo not given), the inhibition is inactive: 10.8%.
Consider `Cc1cccc(C)c1OP(C)(=O)Nc1ccc(SC(F)(F)F)cc1` (stereo not given), for which the inhibition was inactive: 19%.
For `O=[N+]([O-])c1cc([N+](=O)[O-])c(O)c([N+](=O)[O-])c1.c1ccc(Oc2ccncc2)cc1`, the inhibition was inactive: -11%.
The figure for `CCOC(=O)c1ccc(NP(C)(=O)Oc2ccc(OC)cc2)cc1` (stereo not given) is inactive: -24.1%.
The value for `CCOP(C)(=S)SCC(=O)NC(C)C(=O)O` (stereo not given) was inactive: 13.6%; that for `O=C(OCCCN1CCCC1)C(O)(c1ccccc1)C1CCCCC1` (stereo not given) was inactive: -1.91%; that for `CP(=O)(Oc1ccccc1)N1CCOC1=O` (stereo not given) was inactive: -4.25%.
`CCc1ccc(OP(C)(=O)Nc2cccnc2)cc1` (stereo not given): the inhibition is inactive: 11.9%.
`CN(C)C(=O)c1c([N+](=O)[O-])cc([N+](=O)[O-])cc1[N+](=O)[O-]`: the inhibition is inactive: 0.02%.
Turning to `CC(C)(C)c1ccc(OP(C)(=O)O)cc1`, the inhibition was inactive: -4.17%.
For the molecule `COc1ccccc1OP(C)(=O)Nc1ccccc1Br` (stereo not given), the inhibition is inactive: 9.5%.
Regarding `CCOC(=O)c1ccc(NP(C)(=O)Oc2ccc(Cl)cc2)cc1` (stereo not given), the inhibition was inactive: 4.34%.
The figure for `Nc1ccc2c(ccc3cccnc32)n1.O=[N+]([O-])c1cc([N+](=O)[O-])c(O)c([N+](=O)[O-])c1` is inactive: -2.97%.
In the case of `COc1ccc(OP(C)(=O)Nc2ccccc2Br)cc1` (stereo not given), the inhibition is inactive: 20.4%.
The value for `Cc1cc(C)cc(OP(C)(=O)Nc2cccc(C(F)(F)F)c2)c1` (stereo not given) was inactive: 0.06%.
Consider `CP(=O)(OCCOc1ccccc1)OCCOc1ccccc1`, for which the inhibition is inactive: -9.6%.
The value for `COc1ccccc1OP(C)(=O)Nc1ccc(Br)cc1` (stereo not given) was inactive: 22.9%.
The value for `CP(=O)(Nc1ccccn1)Oc1ccccc1` (stereo not given) was inactive: 5.51%; that for `O=[N+]([O-])c1cc([N+](=O)[O-])c(Nc2ccccn2)c([N+](=O)[O-])c1` was inactive: 9.42%; that for `Cc1c(NP(C)(=O)Oc2ccc(C(C)C)cc2)c(=O)n(-c2ccccc2)n1C` (stereo not given) was inactive: 6.84%.
The figure for `CP(=O)(Nc1ccccc1F)Oc1ccccc1` (stereo not given) is inactive: -16%.
For `CC(C)c1ccc(OP(C)(=O)Nc2ccc(SC(F)(F)F)cc2)cc1` (stereo not given), the inhibition is inactive: 5.97%.
On to `O=C(OC1CN2CCC1CC2)c1ccc([N+](=O)[O-])cc1` (stereo not given), for which the inhibition is inactive: 1.28%.
`O=C(OCCN1CCN(CCOCc2ccccc2)CC1)C(O)(c1ccccc1)c1ccccc1`: the inhibition is inactive: 1.14%.
For the molecule `CCOC(=O)c1ccc(NP(C)(=O)Oc2ccc(F)cc2)cc1` (stereo not given), the inhibition was inactive: 19.5%.
The value for `COc1ccc(OP(C)(=O)Nc2ccc(SC(F)(F)F)cc2)cc1` (stereo not given) was inactive: 7.29%; that for `O=[N+]([O-])c1cc([N+](=O)[O-])c(OC2CCCCC2O)c([N+](=O)[O-])c1` (stereo not given) was inactive: 2.38%.
The figure for `CCCCCOc1ccc(NP(C)(=O)Oc2ccc(Cl)cc2Cl)cc1` (stereo not given) is inactive: -2.99%; for `CCN(CC)CCCOC(=O)C(O)(c1ccccc1)C1CCCCC1` (stereo not given) it is inactive: -1.8%.
The figure for `COc1ccc(NP(C)(=O)Oc2ccccc2OC)cc1` (stereo not given) is inactive: -7.81%; for `Cc1c(C(c2ccc3c(c2)OCO3)c2c(C)n(C)n(-c3ccccc3)c2=O)c(=O)n(-c2ccccc2)n1C.O=[N+]([O-])c1cc([N+](=O)[O-])c(O)c([N+](=O)[O-])c1` it is inactive: 12.7%.
As to `Cc1cc(-c2cccc3ccccc23)c(C)cn1.O=[N+]([O-])c1cc([N+](=O)[O-])c(O)c([N+](=O)[O-])c1`, the inhibition is inactive: -5.46%.
As for `O=[N+]([O-])c1cc([N+](=O)[O-])c(NCC2CCS(=O)(=O)C2)c([N+](=O)[O-])c1` (stereo not given), the inhibition is inactive: 12.9%.
On to `CP(=O)(Nc1ccc(SC(F)(F)F)cc1)Oc1ccc(F)cc1` (stereo not given), for which the inhibition is inactive: 26.2%.
As for `Cc1ccccc1NP(C)(=O)Nc1ccccc1C`, the inhibition is inactive: 2.38%.
Take `CP(=O)(Nc1ccc2c(c1)OCCO2)Oc1ccccc1` (stereo not given): the inhibition is inactive: 16.2%.
